How the values were obtained:
human α7 nAChR = human α7 nAChR (Homo sapiens, UniProt P36544); test: [125I]α-Bgt-competitive radioligand binding assay, human α7 in GH4C1 cells; conditions: recombinant peptides, mean (95% confidence interval); for Hill Slope: competition curve; for IC50: GH4C1 cells 0.4 nM binding sites, 0.7–0.9 nM [125I]α-Bgt, 3.5 h room temperature, pH 8.0, triplicate
[1] = molecular target: muscle-type T. californica α1β1γδ nAChR (Tetronarce californica, UniProt P02710+P02712+P02714+P02718); test: [125I]α-Bgt-competitive radioligand binding assay, T. californica membranes; conditions: for Hill Slope: competition curve; for Hill Slope / IC50: mean (95% confidence interval); for IC50: membranes 0.55 nM binding sites, 0.7–0.9 nM [125I]α-Bgt, 3.5 h room temperature, pH 8.0, triplicate

By UniProt entry, the sequences of proteins in these tests, tags left out. Residues count along the entry.
UniProt P36544, 23-502 limits assumed: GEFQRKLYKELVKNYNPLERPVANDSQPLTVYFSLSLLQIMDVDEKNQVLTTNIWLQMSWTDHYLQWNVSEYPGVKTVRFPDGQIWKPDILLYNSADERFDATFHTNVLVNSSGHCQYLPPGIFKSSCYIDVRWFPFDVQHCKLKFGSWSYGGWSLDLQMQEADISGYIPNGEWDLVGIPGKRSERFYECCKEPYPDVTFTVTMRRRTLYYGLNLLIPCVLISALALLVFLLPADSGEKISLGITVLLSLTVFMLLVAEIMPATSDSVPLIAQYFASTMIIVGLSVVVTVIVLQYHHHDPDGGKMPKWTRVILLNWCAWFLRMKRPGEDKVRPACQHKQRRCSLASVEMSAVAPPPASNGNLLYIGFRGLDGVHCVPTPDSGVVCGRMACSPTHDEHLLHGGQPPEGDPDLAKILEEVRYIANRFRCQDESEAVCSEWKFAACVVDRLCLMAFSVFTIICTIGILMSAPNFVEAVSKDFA

Structure (SMILES)	Hill Slope (human α7 nAChR)	IC50 (human α7 nAChR)	Hill Slope ([1]; recombinant peptides)	IC50 ([1]; recombinant peptides)	binding activity, muscle-type receptor ([1]; recombinant peptides)	selectivity between α1β1γδ and α7 nAChRs ([1]; α1β1γδ (T. californica) over human α7, radioligand binding)
CC[C@H](C)[C@@H]1NC(=O)CNC(=O)[C@H](CCCNC(=N)N)NC(=O)CNC(=O)[C@H](CC(N)=O)NC(=O)CNC(=O)[C@H](Cc2ccc(O)cc2)NC(=O)[C@H](CC(N)=O)NC(=O)[C@@H]2CCCN2C(=O)[C@H](CCCNC(=N)N)NC(=O)[C@H](CCCNC(=N)N)NC(=O)[C@@H]2CSSC[C@@H]3NC(=O)[C@H](CC(N)=O)NC(=O)[C@H](CO)NC(=O)[C@H](CC(N)=O)NC(=O)[C@H](CC(C)C)NC(=O)[C@H](CCCCN)NC(=O)[C@H](CCCCN)NC(=O)[C@@H](NC(=O)CN)CSSC[C@H](NC(=O)[C@H](CSSC[C@@H](C(=O)N[C@H](C(=O)N[C@@H](CCCCN)C(=O)N[C@@H](C)C(=O)O)C(C)C)NC(=O)[C@H](CCCNC(=N)N)NC(=O)[C@H](Cc4c[nH]c5ccccc45)NC(=O)[C@H](CC(C)C)NC1=O)NC(=O)[C@H](CCC(=O)O)NC(=O)[C@H](CCCNC(=N)N)NC(=O)[C@H](Cc1ccc(O)cc1)NC(=O)[C@H](CCC(N)=O)NC(=O)[C@H](CCCNC(=N)N)NC(=O)[C@H](CO)NC3=O)C(=O)N[C@@H](Cc1c[nH]cn1)C(=O)NCC(=O)N[C@@H](CC(C)C)C(=O)N[C@@H](C(C)C)C(=O)N2	1.18 (1.11–1.25)	14.2 µM	0.96 (0.94–0.99)	0.408 µM	–	–
CC[C@H](C)[C@@H]1NC(=O)CNC(=O)[C@H](CCCNC(=N)N)NC(=O)CNC(=O)[C@H](CC(N)=O)NC(=O)CNC(=O)[C@H](Cc2ccc(O)cc2)NC(=O)[C@H](CC(N)=O)NC(=O)[C@@H]2CCCN2C(=O)[C@H](CCCNC(=N)N)NC(=O)[C@H](CCCNC(=N)N)NC(=O)[C@@H]2CSSC[C@@H]3NC(=O)[C@H](Cc4c[nH]cn4)NC(=O)[C@H](CO)NC(=O)[C@H](CC(N)=O)NC(=O)[C@H](CC(C)C)NC(=O)[C@H](CC(N)=O)NC(=O)[C@H](CCCCN)NC(=O)[C@@H](NC(=O)CN)CSSC[C@H](NC(=O)[C@H](CSSC[C@@H](C(=O)N[C@H](C(=O)N[C@@H](CCCNC(=N)N)C(=O)N[C@@H](C)C(=O)O)C(C)C)NC(=O)[C@H](CCCCN)NC(=O)[C@H](Cc4c[nH]c5ccccc45)NC(=O)[C@H](CC(C)C)NC1=O)NC(=O)[C@H](CCC(=O)O)NC(=O)[C@H](CCCNC(=N)N)NC(=O)[C@H](Cc1c[nH]cn1)NC(=O)[C@H](CCC(N)=O)NC(=O)[C@H](CCCNC(=N)N)NC(=O)[C@H](Cc1ccc(O)cc1)NC3=O)C(=O)N[C@@H](Cc1c[nH]cn1)C(=O)NCC(=O)N[C@@H](CC(C)C)C(=O)N[C@@H](C(C)C)C(=O)N2	–	14.1 µM	–	–	–	–
CC[C@H](C)[C@@H]1NC(=O)CNC(=O)[C@H](Cc2ccc(O)cc2)NC(=O)[C@H](CC(=O)O)NC(=O)[C@@H]2CCCN2C(=O)[C@H](CCCNC(=N)N)NC(=O)[C@H](CCCNC(=N)N)NC(=O)[C@@H]2CSSC[C@@H]3NC(=O)[C@H](Cc4ccc(O)cc4)NC(=O)[C@H](CO)NC(=O)[C@H](CC(N)=O)NC(=O)[C@H](CC(C)C)NC(=O)[C@H](CCCCN)NC(=O)[C@H](CCCCN)NC(=O)[C@@H](NC(=O)CN)CSSC[C@H](NC(=O)[C@H](CSSC[C@@H](C(=O)N[C@H](C(=O)N[C@@H](CCCNC(=N)N)C(=O)N[C@@H](C)C(=O)N[C@@H](CCCNC(=N)N)C(=O)N[C@@H](CCCCN)C(=O)O)[C@@H](C)O)NC(=O)[C@H](CCCCN)NC(=O)[C@H](Cc4c[nH]c5ccccc45)NC(=O)[C@H](CC(C)C)NC(=O)[C@H]([C@@H](C)CC)NC(=O)CNC(=O)[C@H](CCCNC(=N)N)NC(=O)CNC1=O)NC(=O)[C@H](CCC(=O)O)NC(=O)[C@H](CCCNC(=N)N)NC(=O)[C@H](Cc1c[nH]cn1)NC(=O)[C@H](CCC(N)=O)NC(=O)[C@H](CCCNC(=N)N)NC(=O)[C@H]([C@@H](C)O)NC3=O)C(=O)N[C@@H](Cc1c[nH]cn1)C(=O)NCC(=O)N[C@@H](CC(C)C)C(=O)N[C@@H](C(C)C)C(=O)N2 [Ms11a-3]	2.37 (2.00–2.75)	19.8 µM	0.98 (0.91–1.05)	0.256 µM	greatest affinity	78 times
CC[C@H](C)[C@@H]1NC(=O)[C@H](C)NC(=O)[C@H]([C@@H](C)O)NC(=O)[C@H](C(C)C)NC(=O)[C@H]([C@@H](C)CC)NC(=O)[C@@H]2CSSC[C@H](N)C(=O)N[C@@H](C)C(=O)N[C@@H](CCC(N)=O)C(=O)N[C@@H]([C@@H](C)O)C(=O)NCC(=O)NCC(=O)N[C@@H]([C@@H](C)O)C(=O)N[C@H]3CSSC[C@H](NC1=O)C(=O)N[C@@H](CO)C(=O)N[C@@H]([C@@H](C)O)C(=O)N[C@@H](C)C(=O)N[C@@H]([C@@H](C)O)C(=O)N[C@@H](CO)C(=O)N1CCC[C@H]1C(=O)N[C@@H](CCCCN)C(=O)N[C@@H]([C@@H](C)O)C(=O)N[C@H](C(=O)N[C@@H](Cc1ccccc1)C(=O)N[C@@H](Cc1ccc(O)cc1)C(=O)O)CSSC[C@H](NC(=O)[C@H](CC(=O)O)NC(=O)[C@H](CCCCN)NC(=O)[C@H](CO)NC(=O)[C@H](CCCCN)NC(=O)[C@H](CO)NC3=O)C(=O)N2	–	> 45 µM	1.14 (1.02–1.26)	15 µM	–	–

— publication PMC9866706 (Toxins, 2022)
